Biological target: hERG (Homo sapiens, UniProt Q12809)

Amino acid sequences for entries named in this document (tags omitted). A change or cut given only in a name is not applied to a line headed by its entry.
UniProt Q12809: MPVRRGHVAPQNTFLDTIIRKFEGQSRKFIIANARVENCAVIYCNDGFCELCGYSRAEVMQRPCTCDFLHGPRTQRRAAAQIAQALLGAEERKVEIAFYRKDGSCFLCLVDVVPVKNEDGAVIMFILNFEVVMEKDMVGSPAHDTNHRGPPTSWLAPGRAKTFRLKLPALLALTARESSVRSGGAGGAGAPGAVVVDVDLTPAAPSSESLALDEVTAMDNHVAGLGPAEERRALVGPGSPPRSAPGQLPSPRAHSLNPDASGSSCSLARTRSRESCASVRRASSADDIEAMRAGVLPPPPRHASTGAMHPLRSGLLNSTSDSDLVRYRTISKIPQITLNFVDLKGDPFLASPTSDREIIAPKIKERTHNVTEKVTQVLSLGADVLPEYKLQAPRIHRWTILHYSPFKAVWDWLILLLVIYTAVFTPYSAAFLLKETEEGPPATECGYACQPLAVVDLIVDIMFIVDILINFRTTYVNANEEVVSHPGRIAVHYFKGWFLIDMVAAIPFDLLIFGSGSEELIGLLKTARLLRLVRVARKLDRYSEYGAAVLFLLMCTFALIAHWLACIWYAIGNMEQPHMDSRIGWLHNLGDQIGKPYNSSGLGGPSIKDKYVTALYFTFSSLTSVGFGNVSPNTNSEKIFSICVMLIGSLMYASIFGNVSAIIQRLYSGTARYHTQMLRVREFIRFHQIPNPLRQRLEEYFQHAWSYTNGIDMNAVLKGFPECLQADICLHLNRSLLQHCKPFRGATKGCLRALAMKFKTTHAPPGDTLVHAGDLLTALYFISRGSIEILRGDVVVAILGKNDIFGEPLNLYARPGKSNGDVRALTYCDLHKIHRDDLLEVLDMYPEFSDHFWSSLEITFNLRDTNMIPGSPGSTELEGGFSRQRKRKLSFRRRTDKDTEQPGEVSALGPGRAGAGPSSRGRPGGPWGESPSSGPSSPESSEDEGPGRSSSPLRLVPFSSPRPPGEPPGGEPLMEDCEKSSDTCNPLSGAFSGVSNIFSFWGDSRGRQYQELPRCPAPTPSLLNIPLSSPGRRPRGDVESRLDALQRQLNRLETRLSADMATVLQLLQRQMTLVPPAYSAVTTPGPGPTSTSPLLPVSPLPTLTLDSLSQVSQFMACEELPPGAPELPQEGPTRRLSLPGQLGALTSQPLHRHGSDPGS

NC(=O)c1sc(N2CCOCC2)cc1OCCc1ccccc1 [Compound 1, 5-Morpholino-3-phenethoxythiophene-2-carboxamide]
in vitro hERG liability: no in vitro hERG liability

From article PMC6089501 (Journal of Medicinal Chemistry, 2018)
